Results of unrelated studies side by side (data: NIAID ChemDB).

All rows: tests on isolated targets; organism: HIV-1; protein: Protease; method: HPLC; endpoint: IC50

ICn: concentration for n% inhibition. Neighbouring rows are from separate reports. Blank or dashed fields: not listed here.

| compound | setting | changes | value |
|---|---|---|---|
| CC(C)NC(=O)[C@@H]1CCCN1C(=O)[C@@H](O)[C@H](Cc1ccccc1)NC(=O)[C@H](CC(N)=O)NC(=O)OCc1ccccc1 | - | - | 0.52 µM |
| CC1=NN(c2cc(Cl)c(S(=O)(=O)O)cc2Cl)C(=O)C1N=Nc1ccc(S(=O)(=O)O)cc1 | - | - | 1000 µM |
| CC(C)[C@H](NC(=O)COc1cccc2ccccc12)C(=O)N[C@@H](Cc1ccccc1)[C@H](O)C(=O)N1CSC[C@H]1C(=O)NC(C)(C)C | - | - | 0.0061 µM |
| O=c1c(CO)c/c(=N\Nc2ccc(S(=O)(=O)O)c3ccccc23)c(=O)/c1=N/Nc1ccc(S(=O)(=O)O)c2ccccc12 | - | - | 1.5 µM |
| CC(C)(C)OC(=O)N[C@@H](Cc1ccccc1)[C@H](O)CNC[C@@H](O)[C@H](Cc1ccccc1)NC(=O)C(NC(=O)OCc1ccccc1)C(C)(C)O | pH 5.5 | - | <10 µM |
| CC(C)(C)NC(=O)[C@@H]1CCCN1C(=O)[C@H](O)[C@H](Cc1ccccc1)NC(=O)[C@H](CC(N)=O)NC(=O)OCc1ccccc1 | - | - | >0.089 µM |
| CN(Cc1ccccc1)C(=O)N[C@@H](Cc1ccccc1)[C@H](O)CNC[C@@H](O)[C@H](Cc1ccccc1)NC(=O)OC(C)(C)C | pH 5.5 | - | >10 µM |
| Nc1cc(N)c(N=Nc2cccc3c(S(=O)(=O)O)cccc23)cc1N=Nc1cc([N+](=O)[O-])ccc1O | - | - | 4 µM |
| CC(C)(C)OC(=O)N[C@@H](Cc1ccccc1)[C@H](O)CNC[C@@H](O)[C@H](Cc1ccccc1)NC(=O)OC1CCOC1 | pH 5.5 | - | <10 µM |
| CC(C)(C)OC(=O)N[C@@H](Cc1ccccc1)[C@H](O)CNC[C@@H](O)[C@H](Cc1ccc(OCC(=O)N2CCOCC2)cc1)NC(=O)OC(C)(C)C | - | PR-A71T | 0.059 µM |
| Cc1ccc(NC(=O)c2cc(O)c(N=Nc3cc(S(=O)(=O)O)ccc3O)c3ccccc23)c(C)c1 | - | - | 40 µM |
| CC(C)(C)OC(=O)N[C@@H](Cc1ccccc1)[C@H](O)CNC[C@@H](O)[C@H](Cc1ccccc1)NC(=O)[C@H](O)C(C)(C)C | pH 5.5 | - | <10 µM |
| CSC[C@H](NC(=O)COc1cccc2ccccc12)C(=O)N[C@@H](Cc1ccccc1)[C@H](O)C(=O)N1CSC(C)(C)[C@H]1C(=O)NC(C)(C)C | - | - | 0.0036 µM |
| CC(C)(C)OC(=O)N[C@@H](Cc1ccccc1)[C@H](O)CNC[C@@H](O)[C@H](Cc1ccccc1)NC(=O)C1(O)CCCCC1(C)C | pH 5.5 | - | <10 µM |
| CC(C)[C@H](NC(=O)N(C)Cc1ccccn1)C(=O)N[C@@H](Cc1ccccc1)[C@H](O)[C@H](O)[C@H](Cc1ccccc1)NC(=O)[C@@H](NC(=O)N(C)Cc1ccccn1)C(C)C | - | PR-V82A | 0.0061 µM |
| CC(C)(C)NC(=O)[C@H]1N(C(=O)[C@@H](O)[C@H](Cc2ccccc2)NC(=O)[C@H](CC(N)=O)NC(=O)COc2cccc3ccccc23)CSC1(C)C | - | - | 0.019 µM |
| O=C(O)c1cc(N=Nc2ccc(N=Nc3ccc(S(=O)(=O)O)cc3)cc2)ccc1O | - | - | 34 µM |
| CC(C)[C@H](NC(=O)N(C)Cc1ccccn1)C(=O)N[C@@H](Cc1ccccc1)[C@H](O)CNC[C@@H](O)[C@H](Cc1ccccc1)NC(=O)OC(C)(C)C | pH 5.5 | - | <10 µM |

For reference, 3 entries again:

compound,setting,changes,value
O=c1c(CO)c/c(=N\Nc2ccc(S(=O)(=O)O)c3ccccc23)c(=O)/c1=N/Nc1ccc(S(=O)(=O)O)c2ccccc12,-,-,1.5 µM
CC(C)(C)OC(=O)N[C@@H](Cc1ccccc1)[C@H](O)CNC[C@@H](O)[C@H](Cc1ccccc1)NC(=O)C1(O)CCCCC1(C)C,pH 5.5,-,<10 µM
CSC[C@H](NC(=O)COc1cccc2ccccc12)C(=O)N[C@@H](Cc1ccccc1)[C@H](O)C(=O)N1CSC(C)(C)[C@H]1C(=O)NC(C)(C)C,-,-,0.0036 µM